# Measurements reported in PubChem BioAssay AID504761 (Drosophila RNAi Screening Center, 2011).
# Assay: 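Fly genes whose silencing reduces dengue virus type 2 infection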 (primary screen)
# Cells: D.Mel-2 cells from Drosophila
# Reagent: long dsRNA against Drosophila genes
# Treatment: infection with dengue virus type 2; dose and infection time not stated
# Measurement: 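Cells stained for dengue envelope protein and imaged; percent of infected cells per well on duplicate plates, ranked by infection, with stained nuclei counted for cell number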
# Reading the numbers: infection score: higher = more virus-infected cells; cell count: higher = more cells in the well
# Call rule: 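Very low infection ranking in both replicate wells (chance probability at most 0.065), then a retest showing infection dropped 1.5-fold or more at p below 0.05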
# Meaning of the calls: active = confirmed: knock-down lowers infection; inactive = not picked or not confirmed
# The screen tested about 22,000 reagents; below is a random part of those that have a named target and a result. In the full data, 116 (0.52%) got an active call. 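Calls depend on retest data that are not deposited; infection was ranked per plate without normalising between plates; the unit of the infection score is not given.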 The raw values are shown without normalisation. A number with no mark means an inactive call. No sequences are given here. Not stated in the record: the amount of reagent, the time to read-out.
The first 2 entries, ahead of the listing:
target,PubChem SID,"infection score, replicate 1","infection score, replicate 2","cell count, replicate 1","cell count, replicate 2"
CG17974 (GeneID 37441),SID104184091,12.3,26.1,5001,6760
CG7886 (GeneID 41775),SID104196125,1.68,8.99,6617,6107

The listing, from the start:
target,PubChem SID,"infection score, replicate 1","infection score, replicate 2","cell count, replicate 1","cell count, replicate 2"
CG17974 (GeneID 37441),SID104184091,12.3,26.1,5001,6760
CG7886 (GeneID 41775),SID104196125,1.68,8.99,6617,6107
CG30423 (GeneID 246605),SID104183805,1.82,,6193,
drl (GeneID 44355),SID104183315,41.9,13.5,6140,6778
drl (GeneID 44355),SID104207108,3.39,8.41,2035,2853
CG15125 (GeneID 37258),SID104186339,0.94,3.69,6196,6310
CG10365 (GeneID 42801),SID104194026,5.55,1.6,5854,5932
CG18809 (GeneID 59170),SID104199610,2.56,3.39,4727,5751
CG18809 (GeneID 59170),SID104203203,3.41,9.92,7127,6378
CG2116 (GeneID 31735),SID104197998,11.1,5.05,6418,6593
CG2116 (GeneID 31735),SID104203299,5.22,3.13,6054,5789
rtp (GeneID 40627),SID104191924,4.03,13.4,6755,6590
Cpr49Ad (GeneID 36349),SID104187076,19.1,14.2,5757,6505
Art8 (GeneID 34528),SID104182322,1.49,5.81,6387,6660
RhoGAP1A (GeneID 5740235),SID104200441,3.35,7.91,5826,5917
RhoGAP1A (GeneID 5740235),SID104200443,2.36,3.42,5973,5845
Acp53C14b (GeneID 36873),SID104186361,13.7,11.7,6659,6530
CG13693 (GeneID 33187),SID104180154,5.41,6.6,6914,6663
CG13693 (GeneID 33187),SID104204525,2.26,1.03,6851,6529
TotF (GeneID 117461),SID104182097,21.8,23,4555,5400
CG18095 (GeneID 34823),SID104181740,13.9,,6492,425
CG6933 (GeneID 40214),SID104190543,11.7,18.4,6392,6009
TwdlP (GeneID 43201),SID104194526,26.7,15.5,5351,4847
